Experimental data published in patent publication US5972932A, “Anesthetic method and composition” (Eli Lilly and Company, priority 1997, dated 1999).

System: 5-HT-2 receptor
Assay: pharmacological studies, 5-HT-2 receptor activity

Cc1cc2c(s1)Nc1ccccc1N=C2N1CCN(C)CC1 [olanzapine, 2-methyl-4-(4-methyl-1-piperazinyl)-10H-thieno[2,3-b][1,5]benzodiazepine]
activity at the 5-HT-2 receptor: active
